Test results from US11666559B2, “Spiro-lactam compounds, process and uses thereof” (UNIVERSIDADE DE COIMBRA, priority 2017, dated 2023).
Where two headings read alike, the source gives them in different places.

Tested on: HIV-2
Method: In an embodiment, TZM-bl cells (AIDS Research and Reference Reagent Program, National Institutes of Health, USA) were cultured in complete growth medium that consists of Dulbecco's minimal essential medium (DMEM) supplemented with 10% fetal bovine serum (FBS), 100 U/ml of penicillin-streptomycin (Gibco/Invitrogen, USA), 1 mM of sodium pyruvate (Gibco/Invitrogen, USA), 2 mM of L-glutamine (Gibco/Invitrogen, USA) and 1 mM of non-essential amino acids (Gibco/Invitrogen, USA).
In an embodiment, the primary isolates 93AOHDC249, 93AOHDC250, 01PTHDECJN and 03PTHCC9, used in this study were previously isolated, titrated and characterized for co-receptor usage. HIV reference strain SG3.1 was obtained by transfection of HEK293T cells with pSG3.1 (HIV-1) plasmid using Fugene 6 reagent (Roche, Switzerland) according to manufacturer's instructions.
In an embodiment, the 50% tissue culture infectious dose (TCID50) of the virus was determined in a single-round viral infectivity assay using a luciferase reporter gene assay in TZM-bl cells and calculated using the statistical method of Reed and Muench^27.
In an embodiment, the antiviral activity of the compounds was determined in a single-round assay with TZM-bl cells as previously described ^26. Cells were infected with 200 TCID50 of virus in the presence of serial fold dilutions of the BSS compounds in GM, supplemented with DEAE-dextran (19.7 μg/ml). After 48 h of infection, luciferase expression was quantified with the One-Glow luciferase assay substrate reagent (Promega, USA) according to manufacturer's instructions. Briefly, a volume of reagent equal to that of the culture medium in each well was added. For 96-well plates, typically 100 μl of reagent is added to the cells grown in 100 μl of medium. After an incubation of 3 minutes at room temperature to allow complete cell lysis luminescence was measured in Tecan Infinite M200. Background luminescence was measured by using control wells that contained only target cells and GM. Maraviroc (CCR5 antagonist), T1249 (fusion inhibitor) and AMD3100 (CXCR4 antagonist) were used as positive controls of the antiviral activity. At least two independent experiments were performed for each analysis and each assay was set up in triplicate wells.
In an embodiment, dose-response curves were estimated from the percentage of inhibition of infection (y-axis) against logo of concentration of each compound (x-axis) using the sigmoidal dose-response equation (variable slope) in GraphPad Prism version 5.00 for Windows (GraphPad Software, San Diego Calif. USA, www.graphpad.com). IC50 and IC90 values were determined from this curve. IC50 and IC90 values correspond to the concentration of compound that inhibits viral replication in 50% and 90%, respectively.

[1] = drug resistant HIV-2 primary isolates relative to the control isolate 03PTHCC19

CC1(C)S[C@H]2N(C(=O)[C@]23CC=C(C(=O)OCc2ccccc2)[C@@H]3C(=O)c2ccccc2)[C@H]1C(=O)OC(c1ccccc1)c1ccccc1 [BSS-730A]
IC50 Fold change (00PTHCC20 relative to IC50 of wild type isolate 03PTHCC19): 2.25
IC90 Fold change (00PTHCC20 relative to IC90 of wild type isolate 03PTHCC19): 1.14
IC50 Fold change (00PTHDECT relative to IC50 of wild type isolate 03PTHCC19): 2.88
IC90 Fold change (00PTHDECT relative to IC90 of wild type isolate 03PTHCC19): 0.89
IC50 Fold change (03PTHCC20 relative to IC50 of wild type isolate 03PTHCC19): 2.38
IC90 Fold change (03PTHCC20 relative to IC90 of wild type isolate 03PTHCC19): 1.48
IC50 Fold change (03PTHSM9 relative to IC50 of wild type isolate 03PTHCC19): 2.00
IC90 Fold change (03PTHSM9 relative to IC90 of wild type isolate 03PTHCC19): 1.81
IC50 Fold change (10PTHSJIG relative to IC50 of wild type isolate 03PTHCC19): 1.50
IC90 Fold change (10PTHSJIG relative to IC90 of wild type isolate 03PTHCC19): 0.50
IC50 Fold change (15PTHCEC relative to IC50 of wild type isolate 03PTHCC19): 2.13
IC90 Fold change (15PTHCEC relative to IC90 of wild type isolate 03PTHCC19): 0.79
IC50 Fold change (15PTHSJIG relative to IC50 of wild type isolate 03PTHCC19): 2.25
IC90 Fold change (15PTHSJIG relative to IC90 of wild type isolate 03PTHCC19): 0.88
median IC50 fold-change [1]: 2.39
median IC90 fold-change [1]: 1.09
